Test results reported in PubChem BioAssay AID720717 (ICCB-Longwood Screening Facility, Harvard Medical School, 2013).
This is a selection; strong and weak results do not stand in their true shares. Calls of active or inactive are those of the source.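 How the source made its calls: active means both repeat wells score below -2 in polarization z-score versus plate sample wells, excluding overly bright wells; inactive means the rest.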

Test system: LANA (ORF73) N-terminal peptide binding to nucleosomes, Human herpesvirus 8
Experiment: inhibitors of KSHV LANA-nucleosome binding, primary screen, biochemical, fluorescence polarization, FITC-LANA1-23, chicken nucleosomes (AID 720717)
Settings: FITC-LANA1-23 / chicken nucleosome fluorescence polarization; stronger effect = lower value
How it was run: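 Test system: purified chicken nucleosomes with FITC-labelled LANA N-terminal peptide (1-23); Input: 240 nM purified chicken nucleosomes (480 nM peptide binding sites), final; Medium: TEN-BT buffer, pH 7.5; Timing: 10–45 min, room temperature; Technique: fluorescence polarization, 480 nm excitation, 535 nm parallel and perpendicular emission; Replication: duplicates.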

Q: With `CCCN1CCC(Nc2cc(OC)cc(OC)c2)CC1` as the molecule, how does the z-score read?
A: inactive: -1.01

Q: For `CN1CCC(Nc2ccc(F)cc2)CC1`, which z-score is on record?
A: inactive: -0.299

Q: For `O=C1CCN(CCc2ccccc2)CC1`, which z-score is on record?
A: inactive: -0.0245

Q: With `CC(C)(C)OC(=O)N1CCC(Nc2ccccc2)CC1` as the molecule, how does the z-score read?
A: inactive: -0.254

Q: How did the z-score turn out when `CCN1CCC(Nc2ccc(F)cc2)CC1` was run?
A: inactive: 0.943

Q: `CCOC(=O)N1CCC(Nc2ccc(F)cc2)CC1` was tested. Which z-score did it give?
A: inactive: 0.487

Q: `O=C1CCN(Cc2ccccc2)CC1` was tested. Which z-score did it give?
A: inactive: 0.196

Q: How did the z-score turn out when `CCOC(=O)N1CCC(Nc2cccc(C)c2)CC1` was run?
A: inactive: -1.77

Q: How did the z-score turn out when `CCCN1CCC(Nc2ccc(OC)c(OC)c2)CC1` was run?
A: inactive: -1.53

Q: With `N#CC1(Nc2ccccc2)CCN(Cc2ccccc2)CC1` as the molecule, how does the z-score read?
A: inactive: -1.29

Q: How did the z-score turn out when `c1ccc(CN2CCC(Nc3ccc4c(c3)OCO4)CC2)cc1` was run?
A: inactive: 1.45

Q: `NC(=O)C1(Nc2ccc(F)cc2)CCNCC1` was tested. Which z-score did it give?
A: inactive: 0.213
